Experimental data taken from PubChem BioAssay AID504832 (National Center for Advancing Translational Sciences (NCATS), 2011).
The list shows a part of the results, in another mix than the full data. Results filed as inconclusive are left out. Activity calls are given as the source filed them. The call rests on the fitted dose curve; in most records, active means well fitted inhibition curve with a large enough effect; inconclusive means small, poorly fitted or top-dose-only effect, or another doubt; inactive means no such curve, though single readings can be large or run the other way.

experiment: Primary qHTS for delayed death inhibitors of the malarial parasite plastid, 48 hour incubation; conditions: P. falciparum luciferase growth in erythrocytes; series mostly up to 28.7 µM; activity change, negative = inhibition: at the top concentration
Description: The goal of this screen is to discover new antimalarial compounds that act by inhibiting the development of the apicoplast in the malarial parasite Plasmodium falciparum. The biochemical processes that make this organelle essential for erythrocytic stage parasites are not well understood. However, antibiotics such as azithromycin and tetracycline, which target the apicoplast translational machinery, have a potent antimalarial effect.
We have developed a cell-based assay that measures parasite growth based on the expression of an integrated copy of a firefly luciferase reporter. To detect small molecules that cause this "delayed death" phenotype, erythrocytes infected with the luciferase-expressing parasites were incubated with compounds for either one or two generations, corresponding to 48 and 96 hours, respectively. Compounds that inhibit parasite growth in the second generation, but not the first, should be enriched in antimalarials that target the apicoplast. Growth inhibition is detected by a decrease in luciferase activity.
Assay Provider: David Fidock and Eric Ekland, Columbia University
Keywords: NIH Roadmap, MLPCN, MLI, MLSMR, qHTS, NCGC, qHTS, malaria, luciferase, viability
Four microliters of culture medium (RPMI 1640 with 0.5% w/v Albumax (GIBCO), 24 mM sodium bicarbonate and 10 ug/mL gentamycin) were dispensed by a Multi-drop Combi into white solid 1536-well plates (Grenier) and 23 nL compound was added by a pin tool. Four microliters of infected erythrocytes (2% hematocrit, 0.1% parasitemia final concentration) in culture medium were dispensed and the plates incubated for 48 hours at 37 C in 5% CO2. Two microliters of luciferase detection reagent was added and luminescence was detected by a ViewLux (PerkinElmer) reader.
On the % scale 0 is the no-effect control and ±100 the full control effect; potency means the concentration at half of the fitted maximal effect.

SMILES	activity change, negative = inhibition	Potency
O=[N+]([O-])c1ccc(OP2(=O)COCCO2)cc1 (stereo not given)	inactive: 36.5%	
CN(C)CCOC(=O)C(O)(c1ccccc1)C1CCCCC1 (stereo not given)	inactive: 33.9%	
CN(C)C1(CNC(=O)c2ccc(Cl)c(S(N)(=O)=O)c2)CCCCC1	inactive: 25.8%	
O=C(OCCN1CCN(CCOCc2ccccc2)CC1)C(O)(c1ccccc1)c1ccccc1	inactive: -13.2%	
CN(C)CCOC(=O)C(O)(c1ccccc1)C1CCCC1 (stereo not given)	inactive: 53.2%	
O=C(OCCCN1CCCC1)C(O)(c1ccccc1)C1CCCCC1 (stereo not given)	inactive: -18.6%	
CP(=O)(OC12CC3CC(CC(C3)C1)C2)OC12CC3CC(CC(C3)C1)C2		active: 6.57 µM
C=C(C=O)CC1CC(O)[C@]2(C)OC3C[C@@H]4OC5C[C@]6(C)O[C@]7(C)CCC8OC9C[C@]%10(C)OC(/C(C)=C\CO)C(O)CC%10OC9CC(C)C8OC7CC6O[C@]5(C)C/C=C\C4OC3CC2O1 (stereo not given in full)		active: 10.4 µM
CCN(CC)CCCOC(=O)C(O)(c1ccccc1)c1ccccc1	inactive: -3.09%	
CN(C)C1(CNC(=O)c2ccc(S(C)(=O)=O)cc2)CCCCC1	inactive: 30.8%	
